Taken from: PubChem BioAssay AID1259414 (Drosophila RNAi Screening Center, 2018)
Screen: 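Host factors increasing or decreasing Wolbachia levels in cultured fly cells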 (primary screen). System: Drosophila JW18 cells infected with Wolbachia. Reagent: long dsRNA against Drosophila genes, 0.25 µg dsRNA per well of a 384-well plate. Timing: 5 days. Treatment: cells persistently infected with Wolbachia before knock-down; no added drug. Measurement: 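Imaged fluorescence in situ signal for Wolbachia 23S rRNA per DAPI-counted host cell, given as a robust z-score within each plate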. Scale: Wolbachia per cell robust z: higher = more Wolbachia per host cell than the plate typical. Rule for the call: 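Active if absolute robust z reaches 1.5 in two or more of three replicates, leaving out multi- or no-target dsRNAs, genes unexpressed in JW18 and A1 wells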.
The deposit covers about 24,000 reagents; below is a random part of those that have a named target and a result. In the full data, about 1,210 (5%) got an active call. 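Inactive calls also include excluded dsRNAs with several or no targets, genes unexpressed in JW18, and well A1, regardless of score.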 Entries without a mark were called inactive. A plus sign joins genes that one reagent is predicted to hit. No sequences are given here.

CG14969 [DRSC08428] | Wolbachia per cell robust z, rep 1: -0.395; Wolbachia per cell robust z, rep 2: 0.0942; Wolbachia per cell robust z, rep 3: 0.228
VhaAC45RP (VhaAC45-related protein) [DRSC15423] | Wolbachia per cell robust z, rep 1: 0.433; Wolbachia per cell robust z, rep 2: 0.296; Wolbachia per cell robust z, rep 3: 0.642
VhaAC45RP (VhaAC45-related protein) [DRSC26986] | Wolbachia per cell robust z, rep 1: 1.32; Wolbachia per cell robust z, rep 2: 0.799; Wolbachia per cell robust z, rep 3: 1.42
Tom (Twin of m4) [DRSC11306] | Wolbachia per cell robust z, rep 1: 0.498; Wolbachia per cell robust z, rep 2: -0.292; Wolbachia per cell robust z, rep 3: 0.875
Tom (Twin of m4) [DRSC27660] | Wolbachia per cell robust z, rep 1: 1.23; Wolbachia per cell robust z, rep 2: -1.33; Wolbachia per cell robust z, rep 3: -0.274
Tom (Twin of m4) [DRSC38982] | Wolbachia per cell robust z, rep 1: -0.26; Wolbachia per cell robust z, rep 2: -1.45; Wolbachia per cell robust z, rep 3: -1.31
Nplp4 (Neuropeptide-like precursor 4) [DRSC00391] | Wolbachia per cell robust z, rep 1: 0.0906; Wolbachia per cell robust z, rep 2: -0.0824; Wolbachia per cell robust z, rep 3: -0.462
Ifrd1 (Interferon-related developmental regulator 1) [DRSC00415] | Wolbachia per cell robust z, rep 1: -7.12 (active); Wolbachia per cell robust z, rep 2: -2.62; Wolbachia per cell robust z, rep 3: 0.325
Ifrd1 (Interferon-related developmental regulator 1) [DRSC00566] | Wolbachia per cell robust z, rep 1: -3.64; Wolbachia per cell robust z, rep 2: -0.808; Wolbachia per cell robust z, rep 3: 0.292
CG34429 [DRSC10120] | Wolbachia per cell robust z, rep 1: 0.662; Wolbachia per cell robust z, rep 2: 0.894; Wolbachia per cell robust z, rep 3: 1.27
ND-42 (NADH dehydrogenase (ubiquinone) 42 kDa subunit) [DRSC16754] | Wolbachia per cell robust z, rep 1: 0.506; Wolbachia per cell robust z, rep 2: 0.931; Wolbachia per cell robust z, rep 3: 0.53
ND-42 (NADH dehydrogenase (ubiquinone) 42 kDa subunit) [DRSC26843] | Wolbachia per cell robust z, rep 1: 0.455; Wolbachia per cell robust z, rep 2: -0.129; Wolbachia per cell robust z, rep 3: -0.302
ND-42 (NADH dehydrogenase (ubiquinone) 42 kDa subunit) [DRSC41561] | Wolbachia per cell robust z, rep 1: 0.437; Wolbachia per cell robust z, rep 2: -1.63; Wolbachia per cell robust z, rep 3: -1.08
CG34005 [DRSC38865] | Wolbachia per cell robust z, rep 1: 0.365; Wolbachia per cell robust z, rep 2: -0.346; Wolbachia per cell robust z, rep 3: -0.134
CG14120 [DRSC10124] | Wolbachia per cell robust z, rep 1: -0.114; Wolbachia per cell robust z, rep 2: -0.824; Wolbachia per cell robust z, rep 3: 0.354
CG14120 [DRSC27955] | Wolbachia per cell robust z, rep 1: -0.689; Wolbachia per cell robust z, rep 2: 0.472; Wolbachia per cell robust z, rep 3: -0.234
Gtpx [DRSC08221] | Wolbachia per cell robust z, rep 1: -0.98; Wolbachia per cell robust z, rep 2: -1.66; Wolbachia per cell robust z, rep 3: 0.0756
Gtpx [DRSC22117] | Wolbachia per cell robust z, rep 1: -1.62; Wolbachia per cell robust z, rep 2: -1.03; Wolbachia per cell robust z, rep 3: -0.542

Continued, starting with the last 2 of the part before.
Gtpx [DRSC08221] | Wolbachia per cell robust z, rep 1: -0.98; Wolbachia per cell robust z, rep 2: -1.66; Wolbachia per cell robust z, rep 3: 0.0756
Gtpx [DRSC22117] | Wolbachia per cell robust z, rep 1: -1.62; Wolbachia per cell robust z, rep 2: -1.03; Wolbachia per cell robust z, rep 3: -0.542
Blm (Bloom syndrome helicase) [DRSC16911] | Wolbachia per cell robust z, rep 1: -1.73; Wolbachia per cell robust z, rep 2: 1.42; Wolbachia per cell robust z, rep 3: 0.365
CG9682 [DRSC16536] | Wolbachia per cell robust z, rep 1: -1.07; Wolbachia per cell robust z, rep 2: 0.842; Wolbachia per cell robust z, rep 3: -0.163
CG9682 [DRSC25635] | Wolbachia per cell robust z, rep 1: 0.122; Wolbachia per cell robust z, rep 2: -0.619; Wolbachia per cell robust z, rep 3: 0.209
Pstk + Tim9b [DRSC28671] | Wolbachia per cell robust z, rep 1: -4.46; Wolbachia per cell robust z, rep 2: -11.5; Wolbachia per cell robust z, rep 3: -1.56
Cpr67Fb (Cuticular protein 67Fb) [DRSC10314] | Wolbachia per cell robust z, rep 1: -0.255; Wolbachia per cell robust z, rep 2: 0.0349; Wolbachia per cell robust z, rep 3: -0.519
Cpr67Fb (Cuticular protein 67Fb) [DRSC29696] | Wolbachia per cell robust z, rep 1: -0.577; Wolbachia per cell robust z, rep 2: 0.774; Wolbachia per cell robust z, rep 3: -0.112
CG17376 [DRSC21717] | Wolbachia per cell robust z, rep 1: -1.75; Wolbachia per cell robust z, rep 2: -1.19; Wolbachia per cell robust z, rep 3: -1.46
fu (fused) [DRSC20333] | Wolbachia per cell robust z, rep 1: 0.298; Wolbachia per cell robust z, rep 2: -0.359; Wolbachia per cell robust z, rep 3: 0.428
fu (fused) [DRSC27965] | Wolbachia per cell robust z, rep 1: -0.00557; Wolbachia per cell robust z, rep 2: -0.152; Wolbachia per cell robust z, rep 3: -3.94
CG32109 [DRSC09816] | Wolbachia per cell robust z, rep 1: 0.622; Wolbachia per cell robust z, rep 2: 0.155; Wolbachia per cell robust z, rep 3: 0.459
C1GalTA (Core 1 Galactosyltransferase A) [DRSC03246] | Wolbachia per cell robust z, rep 1: 0.207; Wolbachia per cell robust z, rep 2: 0.737; Wolbachia per cell robust z, rep 3: -0.115
Proc-R (Proctolin receptor) [DRSC18410] | Wolbachia per cell robust z, rep 1: 1.4; Wolbachia per cell robust z, rep 2: 0.649; Wolbachia per cell robust z, rep 3: 0.556
